US9115083B2 (Simpson Biotech Co., Ltd, priority 2011, dated 2015)

Protein sequences, listed by entry. Tags and fused reporters are not part of them. Residues count along the entry.
UniProt P27958, 1027-1657 limits assumed: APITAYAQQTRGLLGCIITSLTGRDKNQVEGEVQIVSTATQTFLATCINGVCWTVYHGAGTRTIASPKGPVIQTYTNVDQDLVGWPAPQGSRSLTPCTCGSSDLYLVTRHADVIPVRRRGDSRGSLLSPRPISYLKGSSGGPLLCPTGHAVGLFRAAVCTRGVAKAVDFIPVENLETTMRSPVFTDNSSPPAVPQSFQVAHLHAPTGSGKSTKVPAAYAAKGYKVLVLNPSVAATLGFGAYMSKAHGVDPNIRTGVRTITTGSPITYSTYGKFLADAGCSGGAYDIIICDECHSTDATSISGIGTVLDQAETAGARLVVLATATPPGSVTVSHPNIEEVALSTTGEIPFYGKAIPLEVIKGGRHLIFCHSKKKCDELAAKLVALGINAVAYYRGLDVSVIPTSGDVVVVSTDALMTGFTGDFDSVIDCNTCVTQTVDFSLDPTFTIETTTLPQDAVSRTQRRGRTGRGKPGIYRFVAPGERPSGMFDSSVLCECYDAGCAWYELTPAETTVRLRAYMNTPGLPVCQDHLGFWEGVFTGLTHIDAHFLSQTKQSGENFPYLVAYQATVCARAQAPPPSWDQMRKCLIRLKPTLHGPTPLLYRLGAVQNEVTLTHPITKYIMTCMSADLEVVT
UniProt P27958, 1658-1711 partner limits assumed: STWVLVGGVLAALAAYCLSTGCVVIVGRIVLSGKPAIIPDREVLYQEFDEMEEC

Biological target: HCV NS3/4A protease (Hepatitis C virus genotype 1a (isolate H77) (HCV), UniProt P27958)
Experiment: HCV protease assay (fluorimetric, FRET substrate)
Details: read-out: IC50 against HCV protease, 30 min at 37° C., triplicate

Row | Compound | IC50 [µM]
1 | CC(C)CC1=C(c2ccc(O)cc2)C(=O)N(C(CC(C)C)C(=O)O)C1=O (single isomer, unassigned) | > 200
2 | CC(C)CC1=C(c2ccc(O)cc2)C(=O)N(C(Cc2ccc(O)cc2)C(=O)O)C1=O (stereo not drawn) | > 200
3 | CC(C)CC1=C(c2ccc(O)cc2)C(=O)N(C(C(=O)O)C(C)O)C1=O (stereo not drawn) | > 200
